Measured values from several laboratories, pooled; numbers as filed in NIAID ChemDB.

All rows: whole-cell or culture tests; organism: Cryptococcus neoformans; measure: MIC90

MIC50, MIC90 and the like: level of inhibition, or share of isolates inhibited. Conditions beyond the fields shown may differ between rows.

C[C@H]1[C@H](O)[C@@H](C)/C=C/C=C/C=C/C=C/C=C/C=C/C=C/[C@H](O[C@@H]2O[C@H](C)[C@@H](O)[C@H](N)[C@@H]2O)C[C@@H]2O[C@](O)(C[C@@H](O)C[C@@H](O)CC[C@H](O)[C@@H](O)C[C@@H](O)CC(=O)O[C@H]1C)C[C@H](O)[C@H]2C(=O)O ; strain: 32 isolates ; value: 0.25 µg/mL
CCN1CCC(O)(/C=C/c2ccc(Cl)cc2)C(C(=O)/C=C/c2ccc(Cl)cc2)C1 ; strain: 15 strains ; value: 1 µg/mL
CCC(C)CC(C)CCCCCCCCC(=O)N[C@H]1C[C@@H](O)[C@H](NCCN)NC(=O)[C@@H]2[C@@H](O)CCN2C(=O)[C@H]([C@H](O)CCN)NC(=O)[C@H]([C@H](O)[C@@H](O)c2ccc(O)cc2)NC(=O)[C@@H]2C[C@@H](O)CN2C(=O)[C@H]([C@@H](C)O)NC1=O ; strain: 19 isolates ; value: 32 µg/mL
C[C@H]1[C@H](O)[C@@H](C)/C=C/C=C/C=C/C=C/C=C/C=C/C=C/[C@H](O[C@@H]2O[C@H](C)[C@@H](O)[C@H](N)[C@@H]2O)C[C@@H]2O[C@](O)(C[C@@H](O)C[C@@H](O)CC[C@H](O)[C@@H](O)C[C@@H](O)CC(=O)O[C@H]1C)C[C@H](O)[C@H]2C(=O)O ; strain: 32 isolates ; value: 0.25 µg/mL
CCC(C)CC(C)CCCCCCCCC(=O)N[C@H]1C[C@@H](O)[C@H](NCCN)NC(=O)[C@@H]2[C@@H](O)CCN2C(=O)[C@H]([C@H](O)CCN)NC(=O)[C@H]([C@H](O)[C@@H](O)c2ccc(O)cc2)NC(=O)[C@@H]2C[C@@H](O)CN2C(=O)[C@H]([C@@H](C)O)NC1=O ; strain: 19 strains ; value: 32 µg/mL
C[C@@H](SC1COC(/C=C/C=C/c2ccc(C#N)cc2F)OC1)[C@](O)(Cn1cncn1)c1ccc(F)cc1F ; value: 0.008 µg/mL
C[C@H]1[C@H](O)[C@@H](C)/C=C/C=C/C=C/C=C/C=C/C=C/C=C/[C@H](O[C@@H]2O[C@H](C)[C@@H](O)[C@H](N)[C@@H]2O)C[C@@H]2O[C@](O)(C[C@@H](O)C[C@@H](O)CC[C@H](O)[C@@H](O)C[C@@H](O)CC(=O)O[C@H]1C)C[C@H](O)[C@H]2C(=O)O ; strain: 15 isolates ; value: 0.25 µg/mL
CCCCCCCCOc1ccc(-c2ccc(C(=O)NC3CC(NCCN)CNC(=O)[C@@H]4[C@@H](O)[C@@H](C)CN4C(=O)[C@@H](CO)NC(=O)[C@H]([C@H](O)Cc4ccccc4)NC(=O)[C@@H]4C[C@@H](O)CN4C(=O)[C@H]([C@@H](C)O)NC3=O)cc2)cc1 ; strain: 30 isolates ; value: 8.8 µg/mL
CCCCCOc1ccc(-c2cc(-c3ccc(C(=O)N[C@H]4C[C@@H](O)[C@@H](O)NC(=O)[C@@H]5[C@@H](O)[C@@H](C)CN5C(=O)[C@H]([C@H](O)CC(N)=O)NC(=O)[C@H]([C@H](O)[C@@H](O)c5ccc(O)c(OS(=O)(=O)O)c5)NC(=O)[C@@H]5C[C@@H](O)CN5C(=O)[C@H]([C@@H](C)O)NC4=O)cc3)no2)cc1 ; strain: 5 isolates ; value: >64 µg/mL
COC(=O)[C@H]1[C@@H]2C[C@@H](O[C@@H]3O[C@H](C)[C@@H](O)[C@H](N)[C@@H]3O)/C=C/C=C/C=C/C=C/C=C/C=C/C=C/[C@H](C)[C@@H](O)[C@H](C)[C@H](C)OC(=O)C[C@H](O)C[C@H](O)[C@@H](O)CC[C@H](O)C[C@H](O)C[C@](O)(C[C@@H]1O)O2 ; strain: 42 isolates (HIV+) ; value: 0.03 µg/mL
CC(C)C(N)CCC(C)C1CC[C@@]2(C)C3=C(CCC12C)C1(C)CC[C@H](O)C(C)(C)C1CC3 ; strain: A.34144 ; value: 0.2 µg/mL
CCCCCCCCCCCCCCCCOP(=O)([O-])OCC[N+](C)(C)C ; value: 2 µg/mL
CC(C)C(CCC(C)C1CC[C@@]2(C)C3=C(CCC12C)C1(C)CC[C@H](O)C(C)(C)C1CC3)SCc1ccccc1 ; strain: A.34144 ; value: 25 µg/mL
CC[C@@H]([C@H](C)O)n1ncn(-c2ccc(N3CCN(c4ccc(OC[C@@H]5CO[C@@](Cn6cncn6)(c6ccc(F)cc6F)C5)cc4)CC3)cc2)c1=O ; strain: 373 isolates ; value: 0.5 µg/mL
Nc1[nH]c(=O)ncc1F ; strain: 37 strains ; value: ≥32 µg/mL
c1ccc(-c2ccc(C(c3ccccc3)n3ccnc3)cc2)cc1 ; strain: 33 strains ; value: 5 µg/mL
CCCCCOc1ccc(-c2ccc(-c3ccc(C(=O)N[C@H]4C[C@@H](O)[C@@H](O)NC(=O)[C@@H]5[C@@H](O)[C@@H](C)CN5C(=O)[C@H]([C@H](C)O)NC(=O)[C@H]([C@H](O)[C@@H](O)c5ccc(O)cc5)NC(=O)[C@@H]5C[C@@H](O)CN5C(=O)[C@H]([C@H](C)O)NC4=O)cc3)cc2)cc1 ; strain: 15 strains ; value: >8 µg/mL
CC(C)C(N)CCC(C)C1CCC2C3CC=C4C[C@@H](O)CCC4(C)C3CCC12C ; strain: IFM.40092 ; value: ≤0.05 µg/mL
CCCCCCCCOc1ccc(C(=O)NC2C[C@@H](O)[C@@H](O)NC(=O)C3[C@@H](O)[C@@H](C)CN3C(=O)C(C(C)O)NC(=O)C([C@H](O)[C@@H](O)c3ccc(O)cc3)NC(=O)C3C[C@@H](O)CN3C(=O)C(C(C)O)NC2=O)cc1 ; strain: 12 strains ; value: >40 µg/mL
N=C(N)c1ccc(OCCCC2CCN(CCCOc3ccc(C(=N)N)cc3)CC2)cc1 ; strain: 33 clinical isolates ; value: 0.0625 µg/mL
CC(N1CCN(c2ccc(-n3cnnn3)cc2)C1=O)[C@](O)(Cn1cncn1)c1ccc(F)cc1F ; strain: 14 strains ; value: 0.25 µg/mL
CC[C@@H]([C@H](C)O)n1ncn(-c2ccc(N3CCN(c4ccc(OC[C@@H]5CO[C@@](Cn6cncn6)(c6ccc(F)cc6F)C5)cc4)CC3)cc2)c1=O ; strain: 15 strains ; value: 0.06 µg/mL
CC(C)C(CCC(C)C1CCC2C3CC=C4C[C@@H](O)CCC4(C)C3CCC12C)NS(=O)(=O)O ; strain: IFM.40092 ; value: 0.2 µg/mL
C[C@@H](c1nc(-c2ccc(C#N)cc2)cs1)[C@](O)(Cn1cnnc1)c1ccc(F)cc1F ; strain: 541 isolates ; value: 0.25 µg/mL

The first 3 rows once more:

SMILES,strain,value
C[C@H]1[C@H](O)[C@@H](C)/C=C/C=C/C=C/C=C/C=C/C=C/C=C/[C@H](O[C@@H]2O[C@H](C)[C@@H](O)[C@H](N)[C@@H]2O)C[C@@H]2O[C@](O)(C[C@@H](O)C[C@@H](O)CC[C@H](O)[C@@H](O)C[C@@H](O)CC(=O)O[C@H]1C)C[C@H](O)[C@H]2C(=O)O,32 isolates,0.25 µg/mL
CCN1CCC(O)(/C=C/c2ccc(Cl)cc2)C(C(=O)/C=C/c2ccc(Cl)cc2)C1,15 strains,1 µg/mL
CCC(C)CC(C)CCCCCCCCC(=O)N[C@H]1C[C@@H](O)[C@H](NCCN)NC(=O)[C@@H]2[C@@H](O)CCN2C(=O)[C@H]([C@H](O)CCN)NC(=O)[C@H]([C@H](O)[C@@H](O)c2ccc(O)cc2)NC(=O)[C@@H]2C[C@@H](O)CN2C(=O)[C@H]([C@@H](C)O)NC1=O,19 isolates,32 µg/mL